Tested on: DNA
Type: binding, mice

In the case of COc1cc2c(c3oc(=O)c4c(c13)CCC4=O)C1(O)C=COC1O2 (stereo not shown) [AFM1, Aflatoxin M1], the “wavelength after hypsochromic shift of the DNA UV spectrum” value is reported as “approximately 240 nm”.

Source: paper PMC9411558, “Toxicity mechanisms of aflatoxin M1 assisted with molecular docking and the toxicity-limiting role of trans-resveratrol” (Scientific Reports, 2022)
